Values of other authors as cited in patent publication US5965088A, “Method for providing rapid disinfection of contact lenses” (priority 1997, dated 1999).

Conditions: cited from earlier work

[H]/N=C(\N/C(=N/[H])NCCCCCCNC(=N)NC(=N)Nc1ccc(Cl)cc1)Nc1ccc(Cl)cc1 [chlorhexidine]
binding to soft lens material vs benzalkonium chloride (clean lenses): seven times less | effect of proteinaceous oily tear-film deposits on amount absorbed vs clean lenses (lenses with deposits): double
